The values that follow come from patent US20230132667.

The data set has as its system Tat arginine-rich motif peptide (Tat-ARM) (HIV-1). The data set is described as follows: binding assay. As to conditions: NMR TOCSY shifts, 0.5 mM RNA, 2x ligand, 50 mM K phosphate, 50 mM NaCl, 25 C; purified recombinant protein; label: 5'-32P (EMSA).

Construct, isoform or probe ends are uncertain for at least one entry.

As for “GGCAGAUCUGAGCCUGGGAGCUCUCUGCC [HIV-1 TAR]”, the binding result is “binds”.
